This experiment concerns the target human serum complement 3 (C3) (UniProt P01024). Kind of experiment: ELISA. As to conditions: read off a plot. A general note: ELISA stands for enzyme-linked immunosorbent assay.

This is an account of results in publication PMC4309557, “Application of the C3-Binding Motif of Streptococcal Pyrogenic Exotoxin B to Protect Mice from Invasive Group A Streptococcal Infection” (2015).

Take SPE B (wild type) C192S: the other: Relative C3 Binding % stood at 92%.
